Source: US8084602B2, “Porphyrin derivatives and their use in photodynamic therapy” (Destiny Pharma Limited, priority 2002, dated 2011)

How the values were obtained:
[1] = system: human dermal fibroblasts (NHDF); assay: Sub-cellular distribution, fluorescence microscopy; type: cell-based; conditions: 1 μM, 1 hour
E. coli cells = assay: Binding of compounds with bacterial cells; type: cell-based; conditions: 5 min incubation

Row | Structure (SMILES) | co-staining with lysosomal-specific dye (LysoTrackerGreen) [1] | co-staining with mitochondria-specific Rhodamine G6 [1] | sub-cellular localisation relative to nucleus ([1]; Hoechst 33342 co-stain) | Bound compound (nmoles/mg cell proteins) (E. coli cells; 0.01 μM, 0 washings) | Bound compound (nmoles/mg cell proteins) (E. coli cells; 0.01 μM, 3 washings) | Bound compound (nmoles/mg cell proteins) (E. coli cells; 0.1 μM, 0 washings) | Bound compound (nmoles/mg cell proteins) (E. coli cells; 0.1 μM, 3 washings) | Bound compound (nmoles/mg cell proteins) (E. coli cells; 0.5 μM, 0 washings) | Bound compound (nmoles/mg cell proteins) (E. coli cells; 0.5 μM, 3 washings) | Bound compound (nmoles/mg cell proteins) (E. coli cells; 1 μM, 0 washings) | Bound compound (nmoles/mg cell proteins) (E. coli cells; 1 μM, 3 washings)
1 | C[N+](C)(C)CCCOc1ccc(-c2c3nc(cc4ccc([nH]4)c(-c4ccc(OCCC[N+](C)(C)C)cc4)c4nc(cc5ccc2[nH]5)C=C4)C=C3)cc1.[Cl-].[Cl-] [Compound 10, 5,15-bis-[4-(3-Trimethylammonio-propyloxy)-phenyl]-porphyrin dichloride] | different localization of Compound 10 and lysosomal fluorescence | co-localisation of Compound 10 and fluorescence of mitochondria | localised extra-nuclearly | 0.026 ± 0.005 | 0.015 ± 0.0004 | 0.274 ± 0.05 | 0.078 ± 0.02 | 1.542 ± 0.350 | 0.334 ± 0.092 | 2.70 ± 0.354 | 1.278 ± 0.102
2 | C[N+](C)(C)CCCOc1cccc(-c2c3nc(cc4ccc([nH]4)c(-c4cccc(OCCC[N+](C)(C)C)c4)c4nc(cc5ccc2[nH]5)C=C4)C=C3)c1.[Cl-].[Cl-] [Compound 12, 5,15-bis-[3-(3-trimethylammonio-propyloxy)-phenyl]-porphyrin dichloride] | – | – | – | 0.041 ± 0.02 | 0.021 ± 0.005 | 0.151 ± 0.02 | 0.089 ± 0.02 | 0.806 ± 0.14 | 0.622 ± 0.10 | 2.70 ± 0.30 | 1.930 ± 0.20
